Source: paper PMC7096397, “Improving the drug-likeness of inspiring natural products - evaluation of the antiparasitic activity against Trypanosoma cruzi through semi-synthetic and simplified analogues of licarin A” (Scientific Reports, 2020)

What follows are compounds tested on T. cruzi (Y strain) trypomastigotes (assay: Anti-trypomastigote assay (resazurin viability)). Details: CC50 against NCTC cells/IC50 against trypomastigotes.
Format: cell-based, Trypanosoma cruzi
Method: (§1) The cells and parasites were kept at 37 °C in a humidified atmosphere containing 5% CO2.
Benznidazole was used as the standard drug. The optical density was determined in FilterMax F5 (Molecular Devices) at 570 nm[38].
(§2) IC50 and CC50 values were calculated using a sigmoid dose-response curves in Graph–Pad Prism 5.0 software (GraphPad Software - San Diego, CA, USA). For the mechanism of action studies one-way ANOVA (Turkey’s Multiple Comparison test) was used for significance (p < 0.05). The assays were repeated at least twice and the samples were tested in duplicate.

Compound | SI trypo
C/C=C/c1cc(OC)c2c(c1)[C@H](C)[C@@H](c1cc(OC)c3oc(C)cc3c1)O2 [1e, 7-methoxy-5-[(2 S,3 S)-7-methoxy-3-methyl-5-[(E)-prop-1-enyl]-2,3-dihydrobenzofuran-2-yl]-2-methyl-benzofuran] | > 19.0
C/C=C/c1ccc(OC(C)=O)c(OC)c1 [4b, [2-methoxy-4-[(E)-prop-1-enyl]phenyl] acetate] | >3.7
C=CCc1cc([C@H]2Oc3c(OC)cc(/C=C/C)cc3[C@@H]2C)cc(OC)c1O [1d, 2-allyl-6-methoxy-4-[(2S,3 S)-7-methoxy-3-methyl-5-[(E)-prop-1-enyl]-2,3-dihydrobenzofuran-2-yl]phenol] | 9.0
O=C(Cn1ccnc1[N+](=O)[O-])NCc1ccccc1 [Bnz, benznidazole, reference compound] | >36.4
C=CCc1cc(/C=C/C)cc(OC)c1O [4d, 2-allyl-6-methoxy-4-[(E)-prop-1-enyl]phenol] | > 9.5
C/C=C/c1cc(OC)c2c(c1)[C@H](C)[C@@H](c1ccc(O)c(OC)c1)O2 [compound 1, Licarin A] | >3.7
COc1cc(CO)ccc1OC(C)=O [3b, [4-(hydroxymethyl)-2-methoxy-phenyl] acetate] | 9.0
C/C=C/c1cc(OC)c2c(c1)[C@H](C)[C@@H](c1ccc(OC)c(OC)c1)O2 [1a, (2S,3 S)-2-(3,4-dimethoxyphenyl)-7-methoxy-3-methyl-5-[(E)-prop-1-enyl]-2,3-dihydrobenzo-furan] | >7.1
C/C=C/c1cc(OC)c2c(c1)[C@H](C)[C@@H](c1ccc(OC(C)=O)c(OC)c1)O2 [1b, [2-methoxy-4-[(2S,3 S)-7-methoxy-3-methyl-5-[(E)-prop-1-enyl]-2,3-dihydrobenzofuran-2-yl]phenyl] acetate] | 3.7

What follows are compounds tested on T. cruzi intracellular amastigotes (assay: Anti-amastigote assay in infected peritoneal macrophages (infection index)). Details: CC50 against NCTC cells/IC50 against amastigotes.
Format: cell-based, Trypanosoma cruzi
Method: as §1
The cells were plated on a 16-well chamber slide – NUNC (Thermo Fisher Scientific) at 1 × 10^5 cells/well and incubated for 24 h at 37 °C in a 5% CO2 humidified incubator. […] Tested compounds were subsequently incubated with infected macrophages for 48 h at 37 °C (5% CO2 humidified incubator) in different nontoxic concentrations. Benznidazole was used as standard drug. At the end of the assay, slides were fixed with MeOH and stained with Giemsa, counted under a light microscope (EVOS M5000, Thermo, USA) and IC50 values were determined by the infection index.
as §2

Compound | SI ama
O=C(Cn1ccnc1[N+](=O)[O-])NCc1ccccc1 [Bnz, benznidazole, reference compound] | >10.7
C=CCc1cc(/C=C/C)cc(OC)c1O [4d, 2-allyl-6-methoxy-4-[(E)-prop-1-enyl]phenol] | >19.1
COc1cc(C=O)ccc1OC(C)=O [2b, (4-formyl-2-methoxy-phenyl) acetate] | >35.6
